Only a part is listed here, and it is no random draw. Active and inactive are the calls of the source. Rule as the data show it: active = inhibition above about 28%; inactive = the rest.
System: EBNA-1 (Epstein-Barr virus nuclear antigen 1), Human herpesvirus 4
Assay: blockers of EBV EBNA-1 binding to DNA – biochemical, fluorescence polarization, primary screen (AID 1950)
Settings: EBNA-1 DNA binding, at 14.8 µM, stronger effect = higher value

SMILES	inhibition
CCOP(C)(=S)SCC(=O)NC(C)C(=O)O (stereo unspecified)	inactive: -4.12%
CP(=O)(Nc1ccccn1)Oc1ccc(Cl)cc1 (stereo unspecified)	inactive: 5.48%
CP(=O)(Oc1ccccc1)OC(c1ccccc1)C(F)(F)F (stereo unspecified)	inactive: 1.41%
Cc1cccc(C)c1OP(C)(=O)Nc1ccc(SC(F)(F)F)cc1 (stereo unspecified)	inactive: -6.36%
CP(=O)(Nc1ccc(SC(F)(F)F)cc1)Oc1ccc(Cl)cc1 (stereo unspecified)	inactive: -3.73%
Cc1cc(C)cc(OP(C)(=O)Nc2ccc(SC(F)(F)F)cc2)c1 (stereo unspecified)	inactive: 5.34%
CCc1ccc(OP(C)(=O)N2CCN(c3ccc([N+](=O)[O-])cc3)CC2)cc1 (stereo unspecified)	inactive: 5.23%
CP(=O)(NC(=O)Nc1ccccc1)Oc1ccccc1 (stereo unspecified)	inactive: 2.56%
O=[N+]([O-])c1cc([N+](=O)[O-])c(-c2cnn(-c3ccccc3)c2)c([N+](=O)[O-])c1	inactive: -11%
Cc1nc2ccc3ccccc3c2s1.O=[N+]([O-])c1cc([N+](=O)[O-])c(O)c([N+](=O)[O-])c1	inactive: -9.29%
O=[N+]([O-])c1cc([N+](=O)[O-])c(-n2nnc3ccccc32)c([N+](=O)[O-])c1	inactive: 12.9%
COc1ccccc1OP(C)(=O)Nc1c(C)cccc1C (stereo unspecified)	inactive: 14.7%
CN1CCCCC1COC(=O)C1(O)c2ccccc2CCc2ccccc21 (stereo unspecified)	inactive: -5.95%
CP(=O)(Nc1ccc(SC(F)(F)F)cc1)Oc1ccccc1 (stereo unspecified)	inactive: 7.02%
CCCOc1ccc(NP(C)(=O)Oc2ccc(Cl)cc2)cc1 (stereo unspecified)	inactive: 6.43%
CCOC(=O)C(CC)C1=NC(C)(C)Cc2ccccc21.O=[N+]([O-])c1cc([N+](=O)[O-])c(O)c([N+](=O)[O-])c1 (stereo unspecified)	inactive: -1.07%
O=[N+]([O-])c1cc([N+](=O)[O-])c(Nc2nnnn2CCO)c([N+](=O)[O-])c1	inactive: 0.76%
CC1=C2N=C(C=C3N=C(C(C)=C4[N-][C@@](C)([C@@H]5N=C1[C@](C)(CCC(=O)NC[C@@H](C)OP(=O)([O-])O[C@H]1[C@@H](O)[C@@H](n6cnc7cc(C)c(C)cc76)O[C@@H]1CO)[C@H]5CC(N)=O)[C@@](C)(CC(N)=O)[C@@H]4CCC(N)=O)[C@@](C)(CC(N)=O)[C@@H]3CCC(N)=O)C(C)(C)[C@@H]2CCC(N)=O.[C-]#N.[Co+3]	inactive: -6.92%
CC1=NCCc2c1[nH]c1ccccc21.O=[N+]([O-])c1cc([N+](=O)[O-])c(O)c([N+](=O)[O-])c1	inactive: 10.6%
O=C(O)c1cccc(Nc2c([N+](=O)[O-])cc([N+](=O)[O-])cc2[N+](=O)[O-])c1	inactive: -19%
Cc1ccc(C)c(NP(C)(=O)Oc2ccccc2)c1 (stereo unspecified)	inactive: -2.53%
CP(=O)(Nc1cccc(Br)c1)Oc1ccccc1 (stereo unspecified)	inactive: 11.8%
Cc1cc(C)cc(OP(C)(=O)Nc2ccccn2)c1 (stereo unspecified)	inactive: 3.21%
COc1ccccc1OP(C)(=O)Nc1cccc(Br)c1 (stereo unspecified)	inactive: 3.25%
CCOC(=O)c1ccc(NP(C)(=O)Oc2cc(C)cc(C)c2)cc1 (stereo unspecified)	inactive: -1.74%
Cc1cc(C)cc(OP(C)(=O)Nc2ccc(C)cc2C)c1 (stereo unspecified)	inactive: -6.5%
